Literature values as cited in paper PMC8025584, “Identification of multipotent drugs for COVID-19 therapeutics with the evaluation of their SARS-CoV2 inhibitory activity” (Computational and Structural Biotechnology Journal, 2021).

Tested on: differentially expressed human proteins in COVID-19
Settings: gene FCER1G; ref DGIdb; cited from earlier work

In the case of BENZYLPENICILLOYL POLYLYSINE, the interaction_types is given as “agonist”.
